Reference: PubChem BioAssay AID1224833 (University of Georgia, 2016)

- Screen: 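Host factors restraining rotavirus as candidate antiviral genes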 (primary screen)
- Cells: monkey MA104 kidney cells
- Reagents: siRNA pool against human genes, 50 nM
- Timing: 48 h knock-down before infection; read 24 h after infection
- Conditions: infection with rotavirus strain RV3 two days after transfection; infectious dose for this stage not given
- Read-out: 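Rotavirus antigen per well by fluorescent immunoassay, normalised to non-targeting control wells on each plate and given as a standard z-score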
- Reading the numbers: z-score vs non-targeting control: higher = more rotavirus replication than with non-targeting control
- Rule for the call: In these data the active calls have z-score vs non-targeting control at about -1 or lower, or at about 1 or higher
- Calls: active = z-score beyond 1 either way; inactive = z-score within 1 of zero
Here is an unselected part of about 12,000 reagents. Of all reagents, about 5,600 (46%) are marked active. 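Active calls cover z-scores past 1 in both directions, so they include lowered as well as raised rotavirus replication.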

COQ6 showed z-score vs non-targeting control -0.827; inactive. Silencing of DBT came out at: z-score vs non-targeting control -1.23; active. Against HMOX1, the entry reads z-score vs non-targeting control -1.65; active. CAVIN2 scored z-score vs non-targeting control 0.869; inactive. After knock-down of GPR55, the record shows z-score vs non-targeting control -1.71; active. Depletion of TMEM59 came out at: z-score vs non-targeting control 1.97; active.

After knock-down of L3HYPDH, the screen gave z-score vs non-targeting control 1.86; active. After knock-down of TLX2, the screen gave z-score vs non-targeting control 2.02; active. Depletion of HCST resulted in: z-score vs non-targeting control 0.642; inactive. Knock-down of ATL2 came out at: z-score vs non-targeting control -0.207; inactive. For CHMP2B, the entry reads z-score vs non-targeting control -1.89; active. With knock-down of DEFA6 the results were z-score vs non-targeting control -0.771; inactive.

Silencing of PSCA came out at: z-score vs non-targeting control -0.521; inactive. GPLD1 gave z-score vs non-targeting control 0.543; inactive. Depletion of TMCC1 gave: z-score vs non-targeting control 0.923; inactive. Against SLC17A9, the values are z-score vs non-targeting control -2.13; active. ZNF665 scored z-score vs non-targeting control 0.459; inactive. Depletion of SCMH1 resulted in: z-score vs non-targeting control 1.27; active.

After knock-down of ALDH3A2, the screen gave z-score vs non-targeting control -1.58; active. ORAI2 scored z-score vs non-targeting control -2.58; active. ANKS1A showed z-score vs non-targeting control -2.73; active. After knock-down of EID3 the results were z-score vs non-targeting control -0.132; inactive. Depletion of PLA2G4A gave: z-score vs non-targeting control -0.7; inactive. With knock-down of SMG6 the results were z-score vs non-targeting control -0.363; inactive.

C10orf53 scored z-score vs non-targeting control -2.28; active. For CMKLR1, the entry reads z-score vs non-targeting control -1.82; active. KBTBD12 gave z-score vs non-targeting control 2.25; active. Depletion of TCF23 gave: z-score vs non-targeting control -0.777; inactive. Knock-down of GTF3C2 gave: z-score vs non-targeting control -0.765; inactive. For WDR45, the entry reads z-score vs non-targeting control -2.11; active.

A run of entries from the list above, as a working copy:
HCST: z-score vs non-targeting control = 0.642; outcome = inactive
ATL2: z-score vs non-targeting control = -0.207; outcome = inactive
CHMP2B: z-score vs non-targeting control = -1.89; outcome = active
DEFA6: z-score vs non-targeting control = -0.771; outcome = inactive
PSCA: z-score vs non-targeting control = -0.521; outcome = inactive

The listing continues.
Knock-down of NEUROG2 resulted in: z-score vs non-targeting control -0.402; inactive. After knock-down of COL4A6, the record shows z-score vs non-targeting control -0.896; inactive. After knock-down of RAVER1, the record shows z-score vs non-targeting control 0.21; inactive. SYDE1 showed z-score vs non-targeting control -0.426; inactive. SLC25A27 scored z-score vs non-targeting control -1.39; active. After knock-down of TBC1D19, the record shows z-score vs non-targeting control -2.53; active.

Against TP53I11, the values are z-score vs non-targeting control -1.75; active. Depletion of BEND7 resulted in: z-score vs non-targeting control -1.5; active. TMEM50A showed z-score vs non-targeting control -0.483; inactive. With knock-down of CC2D2B, the record shows z-score vs non-targeting control -0.636; inactive. MYOM3 gave z-score vs non-targeting control -0.772; inactive. PNMA6A showed z-score vs non-targeting control -0.851; inactive.

Silencing of H2BC1 came out at: z-score vs non-targeting control -1.83; active. Knock-down of PAGE2B came out at: z-score vs non-targeting control 1.71; active. After knock-down of SGCZ the results were z-score vs non-targeting control -0.554; inactive. Depletion of PRR7 came out at: z-score vs non-targeting control 1.18; active. With knock-down of ADIPOR2 the results were z-score vs non-targeting control 0.92; inactive. After knock-down of PPIE, the screen gave z-score vs non-targeting control 0.803; inactive.

For KRTAP17-1 the deposit lists z-score vs non-targeting control 1.26; active. Depletion of STX1A came out at: z-score vs non-targeting control -1.19; active. Against HOXA5, the values are z-score vs non-targeting control -0.576; inactive. Against AGR2 the deposit lists z-score vs non-targeting control -0.1; inactive. Silencing of GON7 came out at: z-score vs non-targeting control -2.01; active. For ATP2A1 the deposit lists z-score vs non-targeting control -1.36; active.

CMTM1 gave z-score vs non-targeting control 1.49; active. DPH1 showed z-score vs non-targeting control 0.917; inactive. For CAMTA1, the entry reads z-score vs non-targeting control 0.803; inactive. PAXBP1 showed z-score vs non-targeting control -0.912; inactive. OR1L4 showed z-score vs non-targeting control -0.322; inactive. With knock-down of QDPR the results were z-score vs non-targeting control -0.585; inactive.
